This assay has as its target LF (Bacillus anthracis, UniProt P15917). It is filed as biochemical.

Protein sequences, listed by entry. Tags and fused reporters are not part of them. Residues count along the entry.
UniProt P15917, 34-809 limits assumed: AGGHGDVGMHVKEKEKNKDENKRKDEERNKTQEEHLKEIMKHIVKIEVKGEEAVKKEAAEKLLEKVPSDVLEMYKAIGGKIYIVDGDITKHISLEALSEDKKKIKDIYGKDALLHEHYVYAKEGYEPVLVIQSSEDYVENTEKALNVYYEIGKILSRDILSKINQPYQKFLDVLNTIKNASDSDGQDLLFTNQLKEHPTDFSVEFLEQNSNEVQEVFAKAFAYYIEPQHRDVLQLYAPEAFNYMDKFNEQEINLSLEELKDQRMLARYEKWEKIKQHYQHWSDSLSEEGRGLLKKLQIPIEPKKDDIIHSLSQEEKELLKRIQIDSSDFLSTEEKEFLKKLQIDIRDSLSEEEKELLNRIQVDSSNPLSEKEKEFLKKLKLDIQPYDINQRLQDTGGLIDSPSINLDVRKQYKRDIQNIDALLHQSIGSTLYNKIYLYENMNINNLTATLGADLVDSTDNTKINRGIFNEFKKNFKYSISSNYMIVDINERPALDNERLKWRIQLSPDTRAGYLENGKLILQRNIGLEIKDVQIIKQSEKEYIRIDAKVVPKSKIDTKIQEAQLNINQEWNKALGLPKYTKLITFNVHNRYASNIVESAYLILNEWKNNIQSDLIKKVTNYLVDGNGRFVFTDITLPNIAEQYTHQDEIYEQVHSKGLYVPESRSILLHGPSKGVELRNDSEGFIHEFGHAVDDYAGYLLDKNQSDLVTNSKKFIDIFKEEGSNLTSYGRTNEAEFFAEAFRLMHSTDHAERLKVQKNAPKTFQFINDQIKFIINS

As for surfen hydrate, the “proteolytic activity of LF on MAPKK peptide (emission at 523 nm)” value is given as “no emission at 523 nm was seen”.

Values taken from paper PMC4550849 (Scientific Reports, 2015).
